From patent publication US5235039A (Eli Lilly and Company, priority 1991, dated 1993)

Test: general procedure: Boc solid-phase peptide synthesis; PAM resin; DCC (biotin coupling); standard double-couple protocol
Conditions: whole synthesis, scale 1.5 millimole

Biotin-PQGIAG[dR]K-OH
crude mass: 1.79 g | isolated mass: 1.27 g | isolated yield: 87% of theory

Biotin-RRRPQQFFGLMGK-OH
crude mass: 2.24 g | isolated mass: 0.669 g | isolated yield: 29% of theory

Biotin-GSQNYPIVGK-OH
crude mass: 2.4 g | isolated mass: 1.206 g | isolated yield: 62% of theory

[ ]: non-standard residue; d: D form. The star is where a group is joined. Biotin = O=C1N[C@H]2[C@H](CS[C@H]2CCCCC(=O)*)N1
